Source: article PMC8842630, “Imidazoline- and Benzamidine-Based Trypanosome Alternative Oxidase Inhibitors: Synthesis and Structure–Activity Relationship Studies” (ACS Medicinal Chemistry Letters, 2022)

How the values were obtained:
[1] = tested on: T. b. brucei strain resistant to pentamidine (B48); type: cell-based; settings: EC50 B48 / EC50 WT
[2] = tested on: T. brucei cell line from which all aquaporins were knocked out (AQP1-3 KO); type: cell-based, T. b. brucei; settings: EC50 AQP1-3 KO / EC50 WT

Structure (SMILES) | RF (resistance factor relative to WT), B48 [1] | RF (resistance factor relative to WT), AQP1-3 KO [2]
CC(=O)O.Cc1cc(O)cc(O)c1C(=O)NCCCCCCOc1ccc(C(=N)N)cc1 [1b] | 1.8 | 1.1
CC(=O)O.Cc1cc(O)cc(O)c1C(=O)NCCCCCCCCCCCCOc1ccc(C(=N)N)cc1 [1c] | 1.1 | 
CC(=O)O.Cc1cc(O)cc(O)c1C(=O)NCCCCCCCCCCCCCCOc1ccc(C(=N)N)cc1 [1d] | 1.6 | 
CC(=O)O.Cc1cc(O)cc(O)c1C(=O)NCCCCCCCCCCCCOc1ccc(C2=NCCN2)cc1 [2c] |  | 1.7
CC(=O)O.Cc1cc(O)cc(O)c1C(=O)NCCCCCCCCCCCCOc1ccc(N=C2NCCN2)cc1 [3c] |  | 1.4
Cc1cc(O)cc(O)c1C(=O)NCCCOc1ccc(C#N)cc1 [7a] | 1.4 | 
Cc1cc(O)cc(O)c1C(=O)NCCCCCCOc1ccc(C#N)cc1 [7b] | 0.9 | 1.0
Cc1cc(O)cc(O)c1C(=O)NCCCCCCCCCCCCOc1ccc(C#N)cc1 [7c] | 1.0 | 
Cc1cc(O)cc(O)c1C(=O)NCCCCCCCCCCCCCCOc1ccc(C#N)cc1 [7d] | 1.1 | 
Cc1cc(O)cc(O)c1C(=O)NCCCCCCOc1ccc(C(=N)NO)cc1 [8b] | 1.9 | 1.1
Cc1cc(O)cc(O)c1C(=O)NCCCCCCCCCCCCOc1ccc(C(=N)NO)cc1 [8c] | 1.1 | 
Cc1cc(O)cc(O)c1C(=O)NCCCCCCCCCCCCCCOc1ccc(C(=N)NO)cc1 [8d] | 0.9 | 
Cc1cc(O)cc(O)c1C(=O)NCCCCCCCCCCCCOc1ccc([N+](=O)[O-])cc1 [11c] |  | 1.1
Cc1cc(O)c(C(=O)CCCCCCCCCCCCCCCOc2ccc(C#N)cc2)c(O)c1 [compound 20] |  | 1.4
N=C(N)c1ccc(OCCCCCOc2ccc(C(=N)N)cc2)cc1 [pentamidine, reference compound] | 49.5 | 10.8
